From patent US10329331B2, “Polypeptides” (priority 2010, dated 2019)

Test system: CD3+ CD4+ T cells in peripheral blood mononuclear cells (PBMC)

With tetanus toxoid [TT, reference compound] the “number of responding individuals as compared to buffer only” value was 49.
